Values quoted from earlier work as cited in patent publication US20030176652A1, “Human and mouse beta-defensins, antimicrobial peptides” (priority 2001, published 2003).

Test system: Legionella spp.
Design: unit not given beside the values

SMILES: CC[C@H]1OC(=O)[C@H](C)[C@@H](O[C@H]2C[C@@](C)(OC)[C@@H](O)[C@H](C)O2)[C@H](C)[C@@H](O[C@@H]2O[C@H](C)C[C@H](N(C)C)[C@H]2O)[C@](C)(O)C[C@@H](C)C(=O)[C@H](C)[C@@H](O)[C@]1(C)O [ERYTHROMYCIN, erythromycin]
- MIC90: 0.25
